For data set [1], the system named is strains of human rhinovirus (HRV). The data set can be described thus: Antirhinoviral H1-HeLa cell culture assay (XTT cell protection, EC50), other HRV strains. It is filed as cell-based, human rhinovirus in H1-HeLa cells. The protocol: Antirhinoviral H1-HeLa Cell Culture Assay:
In this cell protection assay, the ability of compounds to protect cells against HRV infection was measured by the XTT dye reduction method, which is described in Weislow et al., J. Natl. Cancer Inst. (1989), vol. 81, 577-586. H1-HeLa cells were infected with HRV-14 at a multiplicity of infection (m.o.i.) of 0.13 (virus particles/cell) or mock-infected with medium only. Infected or mock-infected cells were resuspended at 8×10^5 cells per mL, and incubated with appropriate concentrations of the compounds to be tested. Two days later, XTT/PMS was added to test plates and the amount of formazan produced was quantified spectrophotometrically at 450/650 nm. The EC50 value was calculated as the concentration of compound that increased the percentage of formazan production in compound-treated, virus-infected cells to 50% of that produced by compound-free, mock-infected cells. The 50% cytotoxic dose (CC50) was calculated as the concentration of compound that decreased the percentage of formazan produced in compound-treated, mock-infected cells to 50% of that produced by compound-free, mock-infected cells. The therapeutic index (TI) was calculated by dividing the CC50 value by the EC50 value.
All strains of human rhinovirus (HRV) for use in this assay were purchased from American Type Culture Collection (ATCC), except for HRV serotype-14 (produced from the infectious cDNA clone constructed by Dr. Robert Rueckert, Institute for Molecular Virology, University of Wisconsin, Madison, Wis.). HRV stocks were propagated and viral assays were performed in H1-HeLa cells (ATCC). Cells were grown in minimal essential medium with 10% fetal bovine serum, available from Life Technologies (Gaithersburg, Md.).
On the technique in general: Tetrazolium dyes change colour on reduction, which living cells bring about.

Data set [2] concerns HRV-14. The data set can be described thus: Antirhinoviral H1-HeLa cell culture assay (XTT cell protection, EC50), HRV-14. The format is cell-based, human rhinovirus (HRV) serotype-14 in H1-HeLa cells. The method in brief:
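XTT dye reduction (450/650 nm) measured survival of H1-HeLa cells two days after HRV-14 infection at m.o.i. 0.13 in the presence of compound, giving EC50. The therapeutic index is CC50 divided by EC50.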

Regarding `Cc1cc(C(=O)Nc2cccn([C@@H](Cc3ccc(F)c(F)c3)C(=O)N[C@H](/C=C/C(=O)OC(C)(C)C)C[C@@H]3CCNC3=O)c2=O)no1` [Compound 46], the TI in data set [1] (HRV-1A) was over 54; in data set [1] (HRV-2), over 68; in data set [1] (HRV-3), over 222; in data set [1] (HRV-9), over 66; in data set [1] (HRV-10), over 74; in data set [1] (HRV-11) it was over 3333. In addition, the TI in data set [1] (HRV-13) was over 128; in data set [1] (HRV-16) it was over 62; in data set [1] (HRV-19), over 500; in data set [1] (HRV-23) it was over 909; in data set [1] (HRV-25), over 53; in data set [1] (HRV-39), over 44. In addition, the TI is over 400 in data set [1] (HRV-78), over 2000 in data set [1] (HRV-Hanks) and over 1666 in data set [2].

For `Cc1cc(C(=O)Nc2cccn([C@@H](Cc3ccc(F)c(F)c3)C(=O)N[C@H](/C=C/C(=O)OC3CCCC3)C[C@@H]3CCNC3=O)c2=O)no1` [Compound 49, trans-(2′S,3″″″S,4S)-4-[3′-(3″,4″-Difluorophenyl)-2′-(3′″-{[1″″-(5′″″-methylisoxazol-3′″″-yl)methanoyl]amino}-2″″-oxo-2″″H-pyridin-1″″-yl)propanoylamino]-5-(2″″″-oxopyrrolidin-3″″″-yl)pent-2-enoic Acid Cyclopentyl Ester], the TI in data set [1] (HRV-1A) is reported as over 76; in data set [1] (HRV-2) it was over 120; in data set [1] (HRV-3) it was over 243; in data set [1] (HRV-9), over 105; in data set [1] (HRV-10), over 131; in data set [1] (HRV-16), over 312. Besides, the TI is over 26 in data set [1] (HRV-25), over 68 in data set [1] (HRV-39) and over 2500 in data set [2].

`C#CC[C@@H](C(=O)N[C@H](/C=C/C(=O)OC(C)C)C[C@@H]1CCNC1=O)n1cccc(NC(=O)c2cc(C)on2)c1=O` [Compound 50, trans-(2′S,3′″″S,4S)-4-[2′-(3″- {[1′″-(5″″-Methylisoxazol-3″″-yl)methanoyl]amino}-2′″-oxo-2′″H-pyridin-1′″-yl)pent-4″-ynoylamino]-5-(2′″″-oxopyrrolidin-3′″″-yl)pent-2-enoic Acid Isopropyl Ester]: the TI in data set [1] (HRV-1A) is over 50; in data set [1] (HRV-2), over 95; in data set [1] (HRV-3) it was over 85; in data set [1] (HRV-9), over 81; in data set [1] (HRV-10) it was over 13; in data set [1] (HRV-16), over 54. Moreover, the TI in data set [1] (HRV-25) is reported as over 26; in data set [2], over 147.

Take `CC[C@@H](C(=O)N[C@H](/C=C/C(=O)OC(C)C)C[C@@H]1CCNC1=O)n1cccc(NC(=O)c2cc(C)on2)c1=O` [Compound 52, trans-(2′S,3′″″S,4S)-4-[2′-(3″-{[1′″-(5″″-Methylisoxazol-3″″-yl)methanoyl]amino}-2′″oxo-2′″H-pyridin-1′″-yl)butanoylamino]-5-(2′″″-oxopyrrolidin-3′″″-yl)pent-2-enoic Acid Isopropyl Ester]: the TI was over 21 in data set [1] (HRV-9); over 56 in data set [1] (HRV-10); over 35 in data set [1] (HRV-16); over 91 in data set [1] (HRV-25); over 29 in data set [1] (HRV-39); over 55 in data set [2].

Consider `Cc1cc(C(=O)Nc2cccn([C@@H](Cc3ccc(F)c(F)c3)C(=O)N[C@H](/C=C/C(=O)OC3CCCCC3)C[C@@H]3CCNC3=O)c2=O)no1` [Compound 54, trans-(2′S,3″″″S,4S)-4-[3′-(3″,4″-Difluorophenyl)-2′-(3′″-{[1″″-(5′″″-methylisoxazol-3′″″-yl)methanoyl]amino}-2″″-oxo-2″″H-pyridin-1″″-yl)propanoylamino]-5-(2″″″-oxopyrrolidin-3″″″-yl)pent-2-enoic Acid Cyclohexyl Ester], for which the TI is over 20 in data set [1] (HRV-1A); over 67 in data set [1] (HRV-2); over 19 in data set [1] (HRV-9); over 76 in data set [1] (HRV-10); over 70 in data set [1] (HRV-16); over 46 in data set [1] (HRV-25). In addition, the TI is recorded as over 28 in data set [1] (HRV-39) and over 222 in data set [2].

`C#CC[C@@H](C(=O)N[C@H](/C=C/C(=O)OC1CCCCC1)C[C@@H]1CCNC1=O)n1cccc(NC(=O)c2cc(C)on2)c1=O` [Compound 55, trans-(2′S,3′″″S,4S)-4-[2′-(3″-{[1′″-(5″″-Methylisoxazol-3″″-yl)methanoyl]amino}-2′″-oxo-2′″H-pyridin-1′″-yl)pent-4″-ynoylamino]-5-(2′″″-oxopyrrolidin-3′″″-yl)pent-2-enoic Acid Cyclohexyl Ester]: the TI is recorded as over 19 in data set [1] (HRV-1A); over 18 in data set [1] (HRV-9); over 51 in data set [1] (HRV-10); over 19 in data set [1] (HRV-25); over 57 in data set [2].

For `C#CC[C@@H](C(=O)N[C@H](/C=C/C(=O)OC1CCCCCC1)C[C@@H]1CCNC1=O)n1cccc(NC(=O)c2cc(C)on2)c1=O` [Compound 57, trans-(2′S,3′″″S,4S)-4-[2′-(3″-{[1′″-(5″″-Methylisoxazol-3″″-yl)methanoyl]amino}-2′″-oxo-2′″H-pyridin-1′″-yl)pent-4″-ynoylamino]-5-(2′″″-oxopyrrolidin-3′″″-yl)pent-2-enoic Acid Cycloheptyl Ester], the TI in data set [1] (HRV-1A) is over 6; in data set [1] (HRV-9), over 6; in data set [1] (HRV-10) it was over 20; in data set [1] (HRV-25), over 1; in data set [2] it was over 23.

As to `Cc1cc(C(=O)Nc2cccn([C@@H](Cc3ccc(F)c(F)c3)C(=O)N[C@H](/C=C/C(=O)OC3CCC3)C[C@@H]3CCNC3=O)c2=O)no1` [Compound 58, trans-(2′S,3″″″S,4S)-4-[3′-(3″,4″-Difluorophenyl)-2′-(3′″-{[1″″-(5′″″-methylisoxazol-3′″″-yl)methanoyl]amino}-2″″-oxo-2″″H-pyridin-1″″-yl)propanoylamino]-5-(2″″″-oxopyrrolidin-3″″″-yl)pent-2-enoic Acid Cyclobutyl Ester], the TI is over 714 in data set [1] (HRV-1A); over 769 in data set [1] (HRV-2); over 2000 in data set [1] (HRV-3); over 212 in data set [1] (HRV-9); over 909 in data set [1] (HRV-10); over 2000 in data set [1] (HRV-11). Besides, the TI is over 416 in data set [1] (HRV-13); over 714 in data set [1] (HRV-16); over 588 in data set [1] (HRV-19); over 1250 in data set [1] (HRV-23); over 625 in data set [1] (HRV-25); over 500 in data set [1] (HRV-39). Also, the TI in data set [1] (HRV-78) is over 714; in data set [1] (HRV-Hanks), over 476; in data set [2], over 3333.

Take `CC[C@@H](C(=O)N[C@H](/C=C/C(=O)OC1CCCCC1)C[C@@H]1CCNC1=O)n1cccc(NC(=O)c2cc(C)on2)c1=O` [Compound 60, trans-(2′S,3′″″S,4S)-4-[2′-(3″-{[1′″-(5″″-Methylisoxazol-3″″-yl)methanoyl]amino}-2′″oxo-2′″H-pyridin-1′″-yl)butanoylamino]-5-(2′″″-oxopyrrolidin-3′″″-yl)pent-2-enoic Acid Cyclohexyl Ester]: the TI in data set [1] (HRV-1A) was over 17; in data set [1] (HRV-9), over 19; in data set [1] (HRV-10), over 27; in data set [1] (HRV-25), over 39; in data set [2], over 57.

In the case of `Cc1cc(C(=O)Nc2cccn([C@@H](Cc3ccccc3)C(=O)N[C@H](/C=C/C(=O)OC(C)C)C[C@@H]3CCNC3=O)c2=O)no1` [Compound 66, trans-(2′S,3′″″S,4S)-4-[2′-(3″-{[1′″-(5″″-Methylisoxazol-3″″-yl)methanoyl]amino}-2′″-oxo-2′″H-pyridin-1′″-yl)-3″-phenylpropanoylamino]-5-(2′″″-oxopyrrolidin-3′″″-yl)pent-2-enoic Acid Isopropyl Ester], the TI in data set [1] (HRV-3) is reported as over 178; in data set [1] (HRV-9), over 51; in data set [1] (HRV-13) it was over 175; in data set [1] (HRV-16) it was over 909; in data set [1] (HRV-39) it was over 454; in data set [1] (HRV-78), over 666. The same compound registered a TI in data set [2] of over 64.

With `Cc1cc(C(=O)Nc2cccn([C@@H](Cc3ccc(F)cc3)C(=O)N[C@H](/C=C/C(=O)OC(C)C)C[C@@H]3CCNC3=O)c2=O)no1` [Compound 67, trans-(2′S,3″″″S)-4-[3′-(4″-Fluorophenyl)-2′-(3′″-{[1″″-(5′″″-methylisoxazol-3′″″-yl)methanoyl]amino}-2″″-oxo-2″″H-pyridin-1″″-yl)propanoylamino]-5-(2″″″-oxopyrrolidin-3″″″-yl)pent-2-enoic Acid Isopropyl Ester], the TI in data set [1] (HRV-3) is listed as over 526; in data set [1] (HRV-9), over 61; in data set [1] (HRV-13), over 61; in data set [1] (HRV-16), over 303; in data set [1] (HRV-39), over 263; in data set [1] (HRV-78), over 208. In data set [2], this compound yielded a TI of over 175.

The values above are taken from patent US6514997B2, “Antipicornaviral compounds and compositions, their pharmaceutical uses, and materials for their synthesis” (Agouron Pharmaceuticals, Inc., priority 1999, dated 2003).
